Earlier results, collected in patent US12138267B2, “Methods of treating respiratory depression modulated by a non-opioid agent” (Enalare Therapeutics Inc., priority 2021, dated 2024).

Tested on: healthy participants
Settings: high dose (1.1 mg/kg/h), Roozekrans et al., 2014; cited from earlier work

CCCNc1nc(NCCC)nc(N(C)OC)n1 [Compound A]
Alfentanil-induced ventilatory suppression: significantly attenuated
